Compound potency records, mixed from different reports. Data source: NIAID ChemDB in PubChem.

Common to all: host cell toxicity; cells: HepG2; endpoint: CC50

a–b is a range or a potency band. CCn: concentration that lowers growth or viability of the cells by n%. Conditions beyond the fields shown may differ between rows.

COc1ccc(C(=O)O[C@H]2c3c(ccc4c(C)cc(=O)oc34)OC(C)(C)[C@H]2OC(=O)c2ccc(OC)c(OC)c2)cc1OC ; method: MTT ; value: 67.54 µM
C[C@H]1C[C@@H]1NC(=O)c1cc2sc(N3CCC(N4CCOCC4)CC3)nc2s1 ; method: fluorescence ; value: >100 µM
Cc1ccc(S(=O)(=O)c2c(N)c3cc(F)ccc3c3sc(C)nc23)cc1 ; method: MTT ; value: 11.3 µM
Nc1nc2c(ncn2[C@@H]2C[C@@H](F)[C@H](CO)O2)c(=O)[nH]1 ; value: >200 µM
COc1cccc(CNCCCNc2ccnc3cc(-c4ccc(C(C)(C)C)cc4)ccc23)c1O ; method: fluorescence ; value: 0.69 µM
CCc1c(C(=O)Nc2ccc(F)c(C)c2)c(C)n(C)c1C(=O)C(=O)N[C@H](C)C(F)(F)F ; method: MTT ; value: 5–30 µM
Cc1cc(=O)oc2c3c(ccc12)OC(C)(C)[C@@H](OC(=O)c1cc(Cl)ccc1Cl)[C@H]3OC(=O)c1cc(Cl)ccc1Cl ; method: MTT ; value: >100 µM
COc1cc2cc(S(=O)(=O)c3ccccc3)c3nc(C)sc3c2cc1OC ; method: MTT ; value: >500 µM
CC[C@H]1OC(=O)[C@H](C)[C@@H](O[C@H]2C[C@@](C)(OC)[C@@H](O)[C@H](C)O2)[C@H](C)[C@@H](O[C@@H]2O[C@H](C)C[C@H](N(C)C)[C@H]2OCCCN(C)Cc2ccnc3ccccc23)[C@](C)(O)C[C@@H](C)CN(C)[C@H](C)[C@@H](O)[C@]1(C)O ; method: MTS ; value: 45 µM
Cc1nc(C2CCC(n3c(NC(C)C)nc4c(c3=O)C[C@@H](C)N(C(=O)c3ccc(Cl)c(C(F)(F)F)c3)C4)CC2)n[nH]1 ; method: luminescence ; value: 12.79 µM
CC(=O)N1CC[C@@H](NC(=O)C(=O)c2c(C)c(C(=O)Nc3ccc(F)c(C)c3)c(C)n2C)[C@H](O)C1 ; method: MTT ; value: >30 µM
CNC(=O)c1ccc(-n2c(NC(C)C)nc3c(c2=O)C[C@@H](C)N(C(=O)c2ccc(C(F)(F)F)c(Br)c2)C3)cc1 ; method: luminescence ; value: >50 µM
COc1cccc(CNCCCNc2ccnc3cc(Cc4ccccc4)ccc23)c1O ; method: fluorescence ; value: 5.72 µM
C[C@@H]1CN(c2nc3sc(C(=O)N[C@H]4C[C@@H]4C)cc3s2)CCN1C(=O)C1CC1 ; method: fluorescence ; value: >100 µM
Clc1ccc(-c2nnc3sc(COc4ccc(Br)cc4)nn23)cc1 ; method: resazurin ; value: 29.08 µM
COC(=O)N1CCN(c2nc3sc(C(=O)N[C@H]4C[C@@H]4C)cc3s2)C[C@H]1C ; method: fluorescence ; value: >100 µM
COc1ccc(F)cc1CNCCCNc1ccnc2cc(Oc3ccccc3OC)ccc12 ; method: fluorescence ; value: 6.4 µM
Cc1ccc(S(=O)(=O)c2cc3ccccc3c3sc(C)nc23)cc1 ; method: MTT ; value: >250 µM
CC[C@H]1OC(=O)[C@H](C)[C@@H](O[C@H]2C[C@@](C)(OC)[C@@H](O)[C@H](C)O2)[C@H](C)[C@@H](O[C@@H]2O[C@H](C)C[C@H](N(C)C)[C@H]2OCCCNC(=O)CCCNc2ccnc3cc(Cl)ccc23)[C@](C)(O)C[C@@H](C)CN(C)[C@H](C)[C@@H](O)[C@]1(C)O ; method: MTS ; value: 50 µM
CNC(=O)c1ccc(-n2c(NC(C)C)nc3c(c2=O)C[C@@H](C)N(C(=O)c2ccc(Br)c(Cl)c2)C3)cc1 ; method: luminescence ; value: >50 µM
O=[N+]([O-])c1ccc(OCc2nn3c(Cc4ccc5ccccc5c4)nnc3s2)cc1 ; method: resazurin ; value: 15.19 µM
CNC(=O)[C@H]1CC[C@H](n2c(NC(C)C)nc3c(c2=O)C[C@@H](C)N(C(=O)c2ccc(Cl)c(C(F)(F)F)c2)C3)C1 ; method: luminescence ; value: >25 µM
CCC1(NC(=O)C(=O)c2c(C)c(C(=O)Nc3ccc(F)c(C)c3)c(C)n2C)CCN(C(=O)c2cnn(C)c2)CC1 ; method: MTT ; value: >30 µM
CC[C@H]1OC(=O)[C@H](C)[C@@H](O)[C@H](C)[C@@H](O[C@@H]2O[C@H](C)C[C@H](N(C)C)[C@H]2OCCCNC(=O)CNc2ccnc3cc(Cl)ccc23)[C@](C)(O)C[C@@H](C)CN(C)[C@H](C)[C@@H](O)[C@]1(C)O ; method: MTS ; value: >100 µM
CCc1c(C(=O)Nc2ccc(F)c(C)c2)c(C)n(C)c1C(=O)C(=O)NC1CCC(S(C)(=O)=O)CC1 ; method: MTT ; value: >30 µM
COc1cccc(CNCCCNc2ccnc3cc(Cc4cccc(C(F)(F)F)c4)ccc23)c1O ; method: fluorescence ; value: 1.72 µM
CC[C@H]1OC(=O)[C@H](C)[C@@H](O)[C@H](C)[C@@H](O[C@@H]2O[C@H](C)C[C@H](N(C)C)[C@H]2OCCCNCc2cnc3ccccc3c2)[C@](C)(O)C[C@@H](C)CN(C)[C@H](C)[C@@H](O)[C@]1(C)O ; method: MTS ; value: >100 µM
Cc1cc(NC(=O)c2c(C)c(C(=O)C(=O)NCC(C)(C)O)n(C)c2-c2ccncc2)ccc1F ; method: MTT ; value: >30 µM
COc1ccc(C(=O)O[C@H]2c3c(ccc4c(C)cc(=O)oc34)OC(C)(C)[C@H]2OC(=O)c2ccc(OC)cc2)cc1 ; method: MTT ; value: 50.92 µM
COc1cccc(CNCCCNc2ccnc3cc(CC(C)C)ccc23)c1O ; method: fluorescence ; value: 2.92 µM
C[C@H]1C[C@@H]1NC(=O)c1cc2sc(OC3CC4(COC4)C3)nc2s1 ; method: fluorescence ; value: >100 µM
Cc1cc(NC(=O)c2c(C)c(C(=O)C(=O)NC3(C)CCC(O)CC3)n(C)c2C2CC2)ccc1F ; method: MTT ; value: >30 µM
C/C=C/C=C/c1nc2cc(OC)ccc2n2cccc12 ; method: MTT / absorbance ; value: 5.8 µM
CC[C@H]1OC(=O)[C@H](C)[C@@H](O[C@H]2C[C@@](C)(OC)[C@@H](O)[C@H](C)O2)[C@H](C)[C@@H](O[C@@H]2O[C@H](C)C[C@H](N(C)C)[C@H]2OCCC(=O)NCCNc2ccnc3cc(Cl)ccc23)[C@](C)(O)C[C@@H](C)CN(C)[C@H](C)[C@@H](O)[C@]1(C)O ; method: MTS ; value: 18 µM
CCCC/C=C/C=C/c1nc2cccc(OC)c2n2cccc12 ; method: MTT / absorbance ; value: 15.8 µM
Cc1cc(=O)oc2c3c(ccc12)OC(C)(C)[C@@H](OC(=O)c1ccc(Br)cc1)[C@H]3OC(=O)c1ccc(Br)cc1 ; method: MTT ; value: 60.92 µM
CCCC/C=C/C=C/c1nc2ccccc2n2cccc12 ; method: MTT / absorbance ; value: 8.2 µM
CC[C@H]1OC(=O)[C@H](C)[C@@H](O[C@H]2C[C@@](C)(OC)[C@@H](O)[C@H](C)O2)[C@H](C)[C@@H](O[C@@H]2O[C@H](C)C[C@H](N(C)C)[C@H]2OCCCNCc2cnc3ccccc3c2)[C@](C)(O)C[C@@H](C)CN(C)[C@H](C)[C@@H](O)[C@]1(C)O ; method: MTS ; value: 20 µM
Cc1cc(NC(=O)c2c(C)c(C(=O)C(=O)NC3CCC(S(C)(=O)=O)CC3)n(C)c2-c2ccccn2)ccc1F ; method: MTT ; value: >30 µM
C[C@H]1CN(c2nc3sc(C(=O)N[C@H]4C[C@@H]4C)cc3s2)[C@@H](C)CO1 ; method: fluorescence ; value: >100 µM
COc1ccc(F)cc1CNCCCNc1ccnc2cc(CC3CCCCC3)ccc12 ; method: fluorescence ; value: 1.83 µM
Cc1ccc(S(=O)(=O)c2cc3cc(F)ccc3c3sc(C)nc23)cc1 ; method: MTT ; value: >125 µM
O=[N+]([O-])c1ccc(OCc2nn3c(-c4ccc(Br)cc4)nnc3s2)cc1 ; method: resazurin ; value: 38.39 µM

The first 3 rows once more:

{"compound": "COc1ccc(C(=O)O[C@H]2c3c(ccc4c(C)cc(=O)oc34)OC(C)(C)[C@H]2OC(=O)c2ccc(OC)c(OC)c2)cc1OC", "method": "MTT", "value": "67.54 µM"}
{"compound": "C[C@H]1C[C@@H]1NC(=O)c1cc2sc(N3CCC(N4CCOCC4)CC3)nc2s1", "method": "fluorescence", "value": ">100 µM"}
{"compound": "Cc1ccc(S(=O)(=O)c2c(N)c3cc(F)ccc3c3sc(C)nc23)cc1", "method": "MTT", "value": "11.3 µM"}